Values from PubChem BioAssay AID624099 (ICCB-Longwood, 2012)
Test: 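Host factors E2 relies on to silence an HPV18 LCR reporter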 (primary screen). Cell system: human C33A cervical carcinoma cells (HPV-negative) stably expressing BPV1 E2 and an HPV18 LCR luciferase reporter. Reagent: siRNA pool against human genes, 40 nM. Duration: 72 h. Detection: 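HPV18 LCR reporter light per well, converted to plate-wise z-scores that exclude control wells, and averaged over triplicate plates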. Reading the numbers: mean z-score and z-score: higher = stronger reporter signal, weaker E2 silencing. Active means: 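Mean z ≥ 2 together with z ≥ 2 in two or more of the three replicates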.
In all, the deposit lists about 21,000 reagents; below is a part drawn at random. In the full data, 497 (2.4%) got an active call. 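Higher z means weaker E2 silencing; only reporter increases were scored, and knock-downs that hurt cell survival may mask genuine repressor factors.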 Unmarked entries are inactive. Reagents against one gene are numbered here.

gene	reagent no.	mean z-score	z-score, replicate A	z-score, replicate B	z-score, replicate C
STK11IP (serine/threonine kinase 11 interacting protein)	1	-0.22	-0.08	-0.1	-0.49
CACNA1C (calcium voltage-gated channel subunit alpha1 C)	1	-1.64	-1.82	-1.62	-1.48
CACNA1C (calcium voltage-gated channel subunit alpha1 C)	2	0.43	0.43	0.75	0.12
SSX5 (SSX family member 5)	1	-0.01	0.13	0.04	-0.19
TPRG1 (tumor protein p63 regulated 1)	1	-0.07	-0.18	-0.12	0.1
ABR (ABR activator of RhoGEF and GTPase)	1	-0.05	0.17	-0.32	0
ENTR1 (endosome associated trafficking regulator 1)	1	-0.23	-0.1	-0.14	-0.44
POLR1B (RNA polymerase I subunit B)	1	0.48	0.51	0.12	0.81
ZNF764 (zinc finger protein 764)	1	-1.51	-1.52	-1.23	-1.79
LRP2BP (LRP2 binding protein)	1	-0.8	-1.08	-0.99	-0.33
COX7A2P2 (cytochrome c oxidase subunit 7A2 pseudogene 2)	1	1.83	1.5	1.77	2.21
GABRG1 (gamma-aminobutyric acid type A receptor subunit gamma1)	1	-0.42	-0.3	-0.44	-0.51
AZU1 (azurocidin 1)	1	-0.37	-0.49	-0.2	-0.42
SPACA1 (sperm acrosome associated 1)	1	0.74	0.81	0.84	0.55
FOXN3 (forkhead box N3)	1	-0.93	-0.96	-0.74	-1.09
FOXN3 (forkhead box N3)	2	-0.51	-0.31	-0.63	-0.58
LINC01102 (long independently transcribed non-coding RNA 1102)	1	-0.09	0.55	-0.37	-0.44
NEDD4 (NEDD4 E3 ubiquitin protein ligase)	1	0.28	0.02	0.57	0.24
LINC00710 (long independently transcribed non-coding RNA 710)	1	2.01	1.6	2.53	1.9
COQ4 (coenzyme Q4)	1	-0.23	-0.69	0.19	-0.19
AZGP1P2 (AZGP1 pseudogene 2)	1	2.19 (active)	2.19	2.26	2.13
AZGP1P2 (AZGP1 pseudogene 2)	2	0.35	0.34	0.71	0
LOC402488 (retired record)	1	-1.7	-1.71	-1.61	-1.79
CACFD1 (calcium channel flower domain containing 1)	1	1.21	1.22	1.31	1.08
ZC3H7A (zinc finger CCCH-type containing 7A)	1	-1.52	-1.51	-1.48	-1.58
LINC02579 (long independently transcribed non-coding RNA 2579)	1	-0.16	-0.24	-0.4	0.17
GABPB1 (GA binding protein transcription factor subunit beta 1)	1	-0.35	-0.04	-0.69	-0.31
FUBP3 (far upstream element binding protein 3)	1	0.68	0.71	0.49	0.85
DAZ1 (deleted in azoospermia 1)	1	1.16	1.09	1.02	1.38
GSC2 (goosecoid homeobox 2)	1	-1.4	-0.94	-1.95	-1.32
PLCD1 (phospholipase C delta 1)	1	0.88	0.95	0.65	1.05
LOC400832 (retired record)	1	1.2	1.58	1.08	0.95
RERE (arginine-glutamic acid dipeptide repeats)	1	1.55	1.32	1.55	1.79
MT-ND6 (mitochondrially encoded NADH dehydrogenase 6)	1	-0.61	-0.41	-0.74	-0.68
DENND6B (DENN domain containing 6B)	1	0.84	0.95	0.91	0.67
HRH4 (histamine receptor H4)	1	-0.68	-0.83	-0.5	-0.71
AGAP4 (ArfGAP with GTPase domain, ankyrin repeat and PH domain 4)	1	-0.3	-0.21	-0.11	-0.58
STEEP1 (STING1 ER exit protein 1)	1	-0.23	0.19	-0.44	-0.43
ADM2 (adrenomedullin 2)	1	0.66	1.02	0.56	0.41
TBC1D17 (TBC1 domain family member 17)	1	-0.13	0.21	-0.47	-0.13
LOC400606 (retired record)	1	-0.48	-0.55	-0.27	-0.62
PITPNB (phosphatidylinositol transfer protein beta)	1	0.34	0.16	0.37	0.5
ZNF230 (zinc finger protein 230)	1	-0.36	-0.28	-0.41	-0.39
ZNF80 (zinc finger protein 80)	1	1.15	1.27	1.21	0.98
SDHD (succinate dehydrogenase complex subunit D)	1	-0.12	0	0.12	-0.46
KLHL36 (kelch like family member 36)	1	-0.46	-0.67	-0.39	-0.32
GLIPR1L2 (GLIPR1 like 2)	1	0.23	0.47	0.07	0.16
UCHL1 (ubiquitin C-terminal hydrolase L1)	1	0.42	0.66	0.48	0.14
LOC401216 (retired record)	1	-0.6	-0.62	-0.6	-0.57
SGPL1 (sphingosine-1-phosphate lyase 1)	1	0.77	0.99	0.53	0.78
TMED2 (transmembrane p24 trafficking protein 2)	1	-0.06	-0.01	-0.18	0.03
SRGN (serglycin)	1	0.63	0.98	0.59	0.31
OTX1 (orthodenticle homeobox 1)	1	0.79	0.84	0.81	0.72
KCNS1	1	-0.5	-0.33	-0.65	-0.52
NUDT12 (nudix hydrolase 12)	1	-0.8	-0.93	-0.59	-0.87
ANXA2P1 (annexin A2 pseudogene 1)	1	-0.67	-0.66	-0.79	-0.56
RFX2 (regulatory factor X2)	1	0.28	0.16	0.1	0.59

9 entries from above in another layout:
ZNF764 (zinc finger protein 764)
- mean z-score: -1.51
- z-score, replicate A: -1.52
- z-score, replicate B: -1.23
- z-score, replicate C: -1.79

LRP2BP (LRP2 binding protein)
- mean z-score: -0.8
- z-score, replicate A: -1.08
- z-score, replicate B: -0.99
- z-score, replicate C: -0.33

COX7A2P2 (cytochrome c oxidase subunit 7A2 pseudogene 2)
- mean z-score: 1.83
- z-score, replicate A: 1.5
- z-score, replicate B: 1.77
- z-score, replicate C: 2.21

GABRG1 (gamma-aminobutyric acid type A receptor subunit gamma1)
- mean z-score: -0.42
- z-score, replicate A: -0.3
- z-score, replicate B: -0.44
- z-score, replicate C: -0.51

AZU1 (azurocidin 1)
- mean z-score: -0.37
- z-score, replicate A: -0.49
- z-score, replicate B: -0.2
- z-score, replicate C: -0.42

SPACA1 (sperm acrosome associated 1)
- mean z-score: 0.74
- z-score, replicate A: 0.81
- z-score, replicate B: 0.84
- z-score, replicate C: 0.55

FOXN3 (forkhead box N3) #1
- mean z-score: -0.93
- z-score, replicate A: -0.96
- z-score, replicate B: -0.74
- z-score, replicate C: -1.09

FOXN3 (forkhead box N3) #2
- mean z-score: -0.51
- z-score, replicate A: -0.31
- z-score, replicate B: -0.63
- z-score, replicate C: -0.58

LINC01102 (long independently transcribed non-coding RNA 1102)
- mean z-score: -0.09
- z-score, replicate A: 0.55
- z-score, replicate B: -0.37
- z-score, replicate C: -0.44
